Pooled drug test results. Numbers come from NIAID ChemDB, via PubChem.

Shared fields: tests on isolated targets

ICn: concentration for n% inhibition. Percent inhibition refers to the dose given; in toxicity tests it is the harm to the cells. An empty or dashed field is not shown. a–b is a range or a potency band. Conditions beyond the fields shown may differ between rows.

compound,tested at,strain or isolate,target,species,read-out,result
COc1nc(Nc2ccc3cn[nH]c3c2)nc(N2CCC(O)CC2)n1,1 µg/mL,-,DNA polymerase,Hepatitis B virus,inhibition,48%
O=C(O)CCC(=O)N[C@H](C(=O)N[C@@H](CCC(=O)O)C(=O)N[C@H](C(=O)N[C@@H](CS)C(=O)O)c1ccc(-c2ccccc2)cc1)C(c1ccccc1)c1ccccc1,-,-,Nonstructural protein 3 NTPase/helicase,Hepatitis C virus,IC50,>16.7 µM
CSc1ncc(C(=O)N2CCN(CCO)CC2)c(Nc2ccc3[nH]ncc3c2)n1,-,-,Reverse transcription,Hepatitis B virus,IC50,~1 µg/mL
COc1nc(Nc2ccc3[nH]ncc3c2)nc(NN2CCOCC2)n1,0.1 µg/mL,-,DNA polymerase,Hepatitis B virus,inhibition,31%
FC(F)(F)Oc1cccc(Oc2cccc(-c3cnc4c(-c5nn[nH]n5)cnn4c3C3CCCCC3)c2)c1,-,-,RNA-dependent RNA polymerase,Hepatitis C virus,IC50,1–10 µM
CSc1ncc(C(=O)N2CCN(CCO)CC2)c(Nc2ccc3cn[nH]c3c2)n1,-,-,Reverse transcription,Hepatitis B virus,IC50,<1 µg/mL
CC(C)C[C@H](NC(=O)CCC(=O)O)C(=O)N[C@@H](CCC(=O)O)C(=O)N[C@@H](CCC(=O)O)C(=O)NC1(C(=O)O)CC1,83.5 µM,-,Nonstructural protein 3 NTPase/helicase,Hepatitis C virus,inhibition,14%
C=CC1CC1(NC(=O)[C@@H]1C[C@@H](OC(=O)Nc2cc(Cl)ccc2C)CN1C(=O)[C@@H](NC(=O)OC(C)(C)C)C(C)(C)C)C(=O)NS(=O)(=O)C1CC1,-,BMS/H77C/J416S,NS3/NS4A protease,Hepatitis C virus,IC50,<0.1 µM
CCC(C)[C@H](NC(=O)[C@H](CC(C)C)NC(=O)CCC(=O)O)C(=O)N[C@@H](CC1CCCCC1)C(=O)N[C@@H](CS)C(=O)O,167 µM,-,Nonstructural protein 3 NTPase/helicase,Hepatitis C virus,inhibition,91%
CC(C)NC1=NC(NC(C)C)N(CN)C(Nc2ccc3cn[nH]c3c2)=N1,10 µg/mL,-,Nonstructural protein 5B,Hepatitis C virus,inhibition,70%
CSc1ncc(C(=O)NCCc2ccccn2)c(Nc2ccc3[nH]ncc3c2)n1,-,-,Reverse transcription,Hepatitis B virus,IC50,~0.01 µg/mL
CC(C)C[C@H](NC(=O)CCC(=O)O)C(=O)N[C@@H](CCC(=O)O)C(=O)N[C@@H](CCC(=O)O)C(=O)N[C@@H](CS)C(=O)O,1.67 µM,-,Nonstructural protein 3 NTPase/helicase,Hepatitis C virus,inhibition,17%
CC[C@H](CO)NC(=O)c1cnc(SC)nc1Nc1ccc2[nH]ncc2c1,-,-,Reverse transcription,Hepatitis B virus,IC50,<0.1 µg/mL
CC[C@H](C)[C@H](NC(=O)[C@H](CC(C)C)NC(=O)CCCC(=O)O)C(=O)N[C@@H](CC1CCCCC1)C(=O)NC1(C(=O)O)CC1,-,-,Nonstructural protein 3 NTPase/helicase,Hepatitis C virus,IC50,>167 µM
COCCNc1nc(Nc2ccc3[nH]ncc3c2)nc(OC)n1,0.01 µg/mL,-,DNA polymerase,Hepatitis B virus,inhibition,52%
C=CC1CC1(NC(=O)[C@@H]1C[C@@H](OC(=O)Nc2cc(C(F)(F)F)ccc2-n2cccc2)CN1C(=O)[C@@H](NC(=O)OC(C)(C)C)C(C)(C)C)C(=O)NS(=O)(=O)C1CC1,-,BMS/H77C/J416S,NS3/NS4A protease,Hepatitis C virus,IC50,<0.1 µM
CSc1ncc(C(=O)N2CCN(C)CC2)c(Nc2ccc3[nH]ncc3c2)n1,-,-,Reverse transcription,Hepatitis B virus,IC50,<0.1 µg/mL
O=C(O)c1cccc(COc2ccc(-c3cnc4c(-c5nn[nH]n5)cnn4c3C3CCCCC3)cc2)c1,-,-,RNA-dependent RNA polymerase,Hepatitis C virus,IC50,<1 µM
NC(=O)CC[C@H](NC(=O)[C@@H](NC(=O)CCC(=O)O)C1CCCCC1)C(=O)N[C@@H](CC1CCCCC1)C(=O)N[C@@H](CS)C(=O)O,-,-,Nonstructural protein 3 NTPase/helicase,Hepatitis C virus,IC50,<16.7 µM
C=CC1CC1(NC(=O)[C@@H]1C[C@@H](OC(=O)Nc2cc(C)cc(C)c2)CN1C(=O)[C@@H](NC(=O)OC(C)(C)C)C(C)(C)C)C(=O)NS(=O)(=O)C1CC1,-,BMS/H77C/J416S,NS3/NS4A protease,Hepatitis C virus,IC50,<0.1 µM
COc1nc(Nc2ccc3cn[nH]c3c2)nc(-n2ccnc2)n1,1 µg/mL,-,DNA polymerase,Hepatitis B virus,inhibition,78%
CC(=O)N[C@H](C(=O)N[C@@H](CCC(=O)O)C(=O)N[C@@H](CCC(=O)O)C(=O)NC1(C(=O)O)CC1)C1CCCCC1,-,-,Nonstructural protein 3 NTPase/helicase,Hepatitis C virus,IC50,>83.5 µM
C=CC1CC1(NC(=O)[C@@H]1C[C@@H](OC(=O)Nc2ccccc2)CN1C(=O)[C@@H](NC(=O)OC(C)(C)C)C(C)(C)C)C(=O)O,-,BMS/H77C/J416S,NS3/NS4A protease,Hepatitis C virus,IC50,>10 µM
COC(=O)[C@H](NC(=O)c1cnc(SC)nc1Nc1ccc2[nH]ncc2c1)[C@@H](C)O,-,-,Reverse transcription,Hepatitis B virus,IC50,~1 µg/mL
C=CC1CC1(NC(=O)[C@@H]1C[C@@H](OC(=O)Nc2c(F)cccc2F)CN1C(=O)[C@@H](NC(=O)OC(C)(C)C)C(C)(C)C)C(=O)NS(=O)(=O)C1CC1,-,BMS/H77C/J416S,NS3/NS4A protease,Hepatitis C virus,IC50,0.1–1 µM
CCOC(=O)C1CCN(c2nc(Nc3ccc4[nH]ncc4c3)nc(OC)n2)CC1,-,-,DNA polymerase,Hepatitis B virus,IC50,0.1–1 µg/mL
COc1cc(F)cc(-c2cc(-c3cccc(Cl)c3)nc3cc(C(=O)O)nn23)c1,-,-,RNA-dependent RNA polymerase,Hepatitis C virus,IC50,1–10 µM
COc1nc(Nc2ccc3cn[nH]c3c2)nc(N2CCOCC2)n1,0.1 µg/mL,-,DNA polymerase,Hepatitis B virus,inhibition,41%
O=C(O)c1cc2nc(-c3ccc(C(F)(F)F)cc3)cc(-c3ccc(Cl)c(Cl)c3)n2n1,-,-,RNA-dependent RNA polymerase,Hepatitis C virus,IC50,>10 µM
CC(=O)N[C@H](C(=O)N[C@@H](CCC(=O)O)C(=O)N[C@@H](Cc1ccc2ccccc2c1)C(=O)N[C@@H](CS)C(=O)O)C1CCCCC1,16.7 µM,-,Nonstructural protein 3 NTPase/helicase,Hepatitis C virus,inhibition,74%
O=C(O)c1cnn2c(-c3cccc(-c4ccc(Cl)cc4)c3)ccnc12,-,-,RNA-dependent RNA polymerase,Hepatitis C virus,IC50,>10 µM
C=CC1CC1(NC(=O)[C@@H]1C[C@@H](OC(=O)Nc2c(CC)cccc2CC)CN1C(=O)[C@@H](NC(=O)OC(C)(C)C)C(C)(C)C)C(=O)NS(=O)(=O)C1CC1,-,BMS/H77C/J416S,NS3/NS4A protease,Hepatitis C virus,IC50,1–10 µM
COC(=O)c1cc2ncc(-c3ccc(OCc4ccccc4)cc3)c(-c3ccccc3)n2n1,-,-,RNA-dependent RNA polymerase,Hepatitis C virus,IC50,>10 µM
C=CC1CC1(NC(=O)[C@@H]1C[C@@H](OC(=O)Nc2ccccc2C(=O)OCC)CN1C(=O)[C@@H](NC(=O)OCC)C(C)(C)C)C(=O)NS(=O)(=O)C1CC1,-,BMS/H77C/J416S,NS3/NS4A protease,Hepatitis C virus,IC50,<0.1 µM
O=C(O)c1cc2nc(-c3cccc(Cl)c3)cc(-c3ccc(Oc4ccccc4)cc3)n2n1,-,-,RNA-dependent RNA polymerase,Hepatitis C virus,IC50,1–10 µM
COCCNC(=O)c1cnc(SC)nc1Nc1ccc2cn[nH]c2c1,-,-,Reverse transcription,Hepatitis B virus,IC50,<1 µg/mL

A second listing of 4 rows from above:

{"compound": "C=CC1CC1(NC(=O)[C@@H]1C[C@@H](OC(=O)Nc2ccccc2)CN1C(=O)[C@@H](NC(=O)OC(C)(C)C)C(C)(C)C)C(=O)O", "strain or isolate": "BMS/H77C/J416S", "target": "NS3/NS4A protease", "species": "Hepatitis C virus", "read-out": "IC50", "result": ">10 µM"}
{"compound": "CSc1ncc(C(=O)N2CCN(CCO)CC2)c(Nc2ccc3[nH]ncc3c2)n1", "target": "Reverse transcription", "species": "Hepatitis B virus", "read-out": "IC50", "result": "~1 µg/mL"}
{"compound": "O=C(O)CCC(=O)N[C@H](C(=O)N[C@@H](CCC(=O)O)C(=O)N[C@H](C(=O)N[C@@H](CS)C(=O)O)c1ccc(-c2ccccc2)cc1)C(c1ccccc1)c1ccccc1", "target": "Nonstructural protein 3 NTPase/helicase", "species": "Hepatitis C virus", "read-out": "IC50", "result": ">16.7 µM"}
{"compound": "O=C(O)c1cc2nc(-c3cccc(Cl)c3)cc(-c3ccc(Oc4ccccc4)cc3)n2n1", "target": "RNA-dependent RNA polymerase", "species": "Hepatitis C virus", "read-out": "IC50", "result": "1–10 µM"}